Tested on: MT-4 cells
Experiment: Cytotoxicity by MTT method in MT-4 cells
Details: HIV-1, 5 days culture at 37°C

Row | Substance | CD₅₀ [µg/mL]
1 | [Cu cyclam]Cl₂ [X, reference compound] | 75.3
2 | c-[Rh cyclam (NO₂)₂]Cl [reference compound] | >250
